Results reported in ChEMBL document CHEMBL3813673, “Bistacrine derivatives as new potent antimalarials” (Bioorg Med Chem, 2016).

Experiments:
[1] = test system: Plasmodium falciparum; test: Antimalarial activity against chloroquine-resistant Plasmodium falciparum Dd2 assessed as parasite viability after 72 hrs by malstat assay
[2] = Selectivity index, ratio of IC50 for mouse J774.1 cells to IC50 for chloroquine-sensitive ring-stage Plasmodium falciparum 3D7
[3] = test system: Plasmodium falciparum; test: Antimalarial activity against chloroquine-sensitive ring-stage Plasmodium falciparum 3D7 assessed as parasite viability after 72 hrs by malstat assay
[4] = Selectivity index, ratio of IC50 for mouse J774.1 cells to IC50 for ring-stage Plasmodium falciparum Dd2
[5] = Cytotoxicity against mouse J774.1 cells after 24 hrs by AlamarBlue based cytotoxicity assay; assay type: cell-based
[6] = Reversible inhibition of recombinant Plasmodium falciparum falcipain 2 assessed as hydrolysis of Cbz-Phe-Arg-AMC measured after 10 mins by spectrofluorometric method

SMILES | IC50 [1] [nM] | Ratio IC50 [2] | IC50 [3] [nM] | Ratio IC50 [4] | IC50 [5] [nM] | IC50 [6] [nM]
c1ccc2c(NCCCNc3c4c(nc5ccccc35)CCCC4)c3c(nc2c1)CCCC3 | 3990 | 86.9 | 490 | 10.7 | – | –
c1ccc2c(NCCCCNc3c4c(nc5ccccc35)CCCC4)c3c(nc2c1)CCCC3 | 1390 | 48.8 | 170 | 5.97 | 8300 | –
c1ccc2c(NCCNc3c4c(nc5ccccc35)CCCC4)c3c(nc2c1)CCCC3 | 6110 | 113 | 400 | 7.4 | – | –
c1ccc2c(NCCCCCCCCCNc3c4c(nc5ccccc35)CCCC4)c3c(nc2c1)CCCC3 | 150 | 36 | 50 | 12 | 1800 | 11500
